In patent US5223411A, “Nonionic surfactants having a carbamoyl group and process for treatment of a proteins containing medium using the same” (Centre National de la Recherche Scientifique (CNRS), priority 1990, dated 1993):

System: Spiroplasma melliferum B88 membrane
Test: Membrane protein extraction with detergents, spiroplasmal membrane
Conditions: concentrations below the CMC

SMILES: CCCCCCCNC(=O)OC[C@H]1O[C@H](OC)[C@H](O)[C@@H](O)[C@@H]1O [HECAMEG, 6-0 (N-Heptylcarbamoyl) methyl α-D-glucopyranoside]
- membrane protein extraction below the CMC: inefficient
